Several values for one entry are separate records, joined by “and”; a condition that tells them apart may be missing. Equal entries are not always repeated.
Molecular target: Alpha-hemolysin (Hla), recombinant wild type (S. aureus 8325-4, UniProt Q2G1X0)
Details: both partners purified

B1: YG1 human anti-Hla monoclonal antibody (antibody, V domains shown)
VH: QVQLVQSGAEMQKPGASVKVSCKVTGYALASLSLHWVRQTPGAGLEWLGGLDPGHGETIYAEKLQGRVVMTGDTSTDTAYMQLSSLTSEDTAIYYCASDWLRHGFEFWGQGTTVTVSS
VL: EIVLTQSPATLSVSPGDGATLSCRASQSVSGNLAWYQKKPGQAPRLLIYDTSIRAAGVPPRFSGSGSGTEFTLTISSLQSEDFAVYYCQQYHNLPPLTFGPGTKLEIK
notes: also called YG1 mAb; source: expressed and purified as a full-length human IgG1 antibody
- Kd: 2.95 nM and 1.92 nM and 2.98 nM and 2.6 nM
- koff: 0.000255 s⁻¹ and 0.000271 s⁻¹ and 0.000274 s⁻¹
- kon: 133000 M⁻¹ s⁻¹ and 91200 M⁻¹ s⁻¹ and 92600 M⁻¹ s⁻¹

Source: article PMC8319846 (Frontiers in Microbiology, 2021)
